Measurements reported in PubChem BioAssay AID624099 (ICCB-Longwood, 2012)
This is one part, drawn at random, of about 21,000 reagents tested. In the full data, 497 (2.4%) are marked active. 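Higher z means weaker E2 silencing; only reporter increases were scored, and knock-downs that hurt cell survival may mask genuine repressor factors.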 The numbers tell different reagents against one gene apart.

Aim: 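Host factors E2 relies on to silence an HPV18 LCR reporter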 (primary screen)
Cell system: human C33A cervical carcinoma cells (HPV-negative) stably expressing BPV1 E2 and an HPV18 LCR luciferase reporter
Knock-down reagent: siRNA pool against human genes, 40 nM
Duration: 72 h
Measured: 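Per-well luciferase luminescence, z-scored on each plate against the plate mean and SD with control wells left out, then averaged across three replicate plates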
Reading the numbers: mean z-score and z-score: higher = stronger reporter signal, weaker E2 silencing
Rule for the call: 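Hit if mean z-score reaches 2 and two or more of three replicate z-scores also reach 2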

Target gene,reagent,mean z-score,"z-score, replicate A","z-score, replicate B","z-score, replicate C",outcome
ADD2 (adducin 2),1,-0.51,-0.12,-0.61,-0.79,inactive
CHRND (cholinergic receptor nicotinic delta subunit),1,-0.3,-0.24,-0.41,-0.26,inactive
SLC16A10,1,-1.77,-1.45,-1.56,-2.3,inactive
LINC02381 (long independently transcribed non-coding RNA 2381),1,0.28,0.39,0.26,0.18,inactive
MAPK11 (mitogen-activated protein kinase 11),1,-0.51,-0.64,-0.44,-0.44,inactive
SH3BP5 (SH3 domain binding protein 5),1,2.65,2.98,2.42,2.54,active
ZNF227 (zinc finger protein 227),1,-0.29,-0.21,-0.51,-0.15,inactive
PAK3 (p21 (RAC1) activated kinase 3),1,0.28,0.19,-0.05,0.7,inactive
SLX4 (SLX4 structure-specific endonuclease subunit),1,0.68,0.74,0.42,0.9,inactive
SLX4 (SLX4 structure-specific endonuclease subunit),2,1.35,1.19,1.23,1.64,inactive
CLDN23 (claudin 23),1,1.62,1.3,1.81,1.74,inactive
MIATNB (MIAT neighbor),1,-0.15,-0.03,-0.42,-0.01,inactive
ZSCAN18 (zinc finger and SCAN domain containing 18),1,-0.15,-0.07,-0.07,-0.3,inactive
LINC00887 (long independently transcribed non-coding RNA 887),1,0.49,0.87,0.28,0.32,inactive
CATSPER3 (cation channel sperm associated 3),1,0.53,0.91,0.33,0.34,inactive
MSTO1 (misato mitochondrial distribution and morphology regulator 1),1,-0.87,-1.11,-0.94,-0.55,inactive
LOC388587 (retired record),1,-1.61,-1.52,-1.54,-1.76,inactive
LINC00324 (long independently transcribed non-coding RNA 324),1,0.23,0.35,0.18,0.17,inactive
MILR1 (mast cell immunoglobulin like receptor 1),1,0.91,1.48,0.63,0.62,inactive
"OPN1LW (opsin 1, long wave sensitive)",1,0.66,0.7,0.57,0.7,inactive
CCDC126 (coiled-coil domain containing 126),1,-0.58,-0.48,-0.62,-0.64,inactive
ACSM6 (acyl-CoA synthetase medium chain family member 6),1,1.31,0.93,0.36,2.63,inactive
TSR2 (TSR2 ribosome maturation factor),1,0.35,0.59,-0.18,0.62,inactive
RPTN (repetin),1,-0.38,-0.25,-0.71,-0.19,inactive
CCDC89 (coiled-coil domain containing 89),1,1.02,1.04,1.11,0.9,inactive
AFG1L (AFG1 like ATPase),1,-0.73,-1.02,-0.47,-0.7,inactive
PRRT1 (proline rich transmembrane protein 1),1,1.03,1.11,0.73,1.24,inactive
MTUS1 (microtubule associated scaffold protein 1),1,-1.07,-1.18,-1.09,-0.95,inactive
LINC01550 (long independently transcribed non-coding RNA 1550),1,-1.19,-1.28,-1.34,-0.95,inactive
PSME3IP1P1 (PSME3IP1 pseudogene 1),1,-1.32,-1.26,-1.35,-1.34,inactive
LOC389159 (retired record),1,-1.57,-1.89,-1.48,-1.34,inactive
SORBS2 (sorbin and SH3 domain containing 2),1,2.85,2.86,3,2.69,active
"PCDHGA2 (protocadherin gamma subfamily A, 2)",1,0.91,0.35,1.12,1.26,inactive
"CEACAM16 (CEA cell adhesion molecule 16, tectorial membrane component)",1,-0.91,-0.77,-1.02,-0.94,inactive
AFAP1L1 (actin filament associated protein 1 like 1),1,0.5,0.46,0.44,0.59,inactive
LRFN5,1,1.64,0.8,1.48,2.63,inactive
LOC388141 (retired record),1,-0.73,-0.57,-0.89,-0.73,inactive
RNASE4 (ribonuclease A family member 4),1,-0.34,-0.66,-0.19,-0.17,inactive
ESCO2,1,-0.9,-0.94,-1.01,-0.75,inactive
IGKV1OR2-118 (immunoglobulin kappa variable 1/OR2-118 (pseudogene)),1,0.01,-0.02,0.21,-0.17,inactive
UBE3C (ubiquitin protein ligase E3C),1,1.89,2.1,1.78,1.78,inactive
TSEN54 (tRNA splicing endonuclease subunit 54),1,1.6,1.99,1.45,1.37,inactive
HID1 (HID1 domain containing),1,0.03,1.55,-0.77,-0.7,inactive
"ANKRD19P (ankyrin repeat domain 19, pseudogene)",1,-0.81,-0.8,-1.07,-0.57,inactive
TLR10 (toll like receptor 10),1,0.21,0.21,0.3,0.13,inactive
"METTL22 (methyltransferase 22, Kin17 lysine)",1,-1.4,-1.22,-1.48,-1.51,inactive
PTBP1 (polypyrimidine tract binding protein 1),1,0.68,0.59,0.85,0.59,inactive
"LONP2 (lon peptidase 2, peroxisomal)",1,1.12,0.99,1.29,1.09,inactive
ARHGEF11 (Rho guanine nucleotide exchange factor 11),1,1.04,0.84,1.2,1.08,inactive
GABRG2 (gamma-aminobutyric acid type A receptor subunit gamma2),1,1.32,1.14,1.45,1.36,inactive
ELP1 (elongator acetyltransferase complex subunit 1),1,-0.48,-0.67,-0.11,-0.68,inactive
TMEM38A (transmembrane protein 38A),1,0.84,0.47,1.22,0.83,inactive
ANKRD35 (ankyrin repeat domain 35),1,0.93,1.5,1.06,0.24,inactive
STKLD1 (serine/threonine kinase like domain containing 1),1,0.16,0.21,0.02,0.24,inactive
LOC283117 (retired record),1,-0.66,-0.61,-0.72,-0.65,inactive
LOC389650 (retired record),1,-1.28,-1.7,-0.48,-1.64,inactive
PRPF38A (pre-mRNA processing factor 38A),1,-0.76,-0.74,-0.82,-0.72,inactive
GPR119 (G protein-coupled receptor 119),1,-0.21,0.12,-0.55,-0.21,inactive
PPME1 (protein phosphatase methylesterase 1),1,2.03,1.83,1.83,2.42,inactive
"RBBP8 (RB binding protein 8, endonuclease)",1,0.82,1.01,0.76,0.7,inactive
SRRD (SRR1 domain containing),1,-0.07,0.03,0.09,-0.33,inactive
NEBL (nebulette),1,0.38,0.25,0.45,0.45,inactive
NEBL (nebulette),2,-1.03,-1.17,-1.02,-0.91,inactive
TSPAN8 (tetraspanin 8),1,1.24,1.47,1.51,0.74,inactive
TBC1D2B (TBC1 domain family member 2B),1,0.3,0.63,0.04,0.24,inactive
TTC31 (tetratricopeptide repeat domain 31),1,0.31,0.28,-0.02,0.69,inactive
COL4A5 (collagen type IV alpha 5 chain),1,-0.96,-0.74,-1.09,-1.03,inactive
ZNF813 (zinc finger protein 813),1,-0.43,-0.64,-0.51,-0.14,inactive
KIAA0513,1,-0.3,-0.37,-0.24,-0.29,inactive
STAM (signal transducing adaptor molecule),1,-0.28,-0.21,-0.4,-0.23,inactive
LOC339771 (retired record),1,-0.07,-0.18,-0.02,-0.01,inactive
ZNF835 (zinc finger protein 835),1,0.52,0.51,0.43,0.62,inactive
TRUB2 (TruB pseudouridine synthase family member 2),1,-1.36,-1.39,-1.49,-1.19,inactive

12 consecutive records from above, for reference:
Target gene,reagent,mean z-score,"z-score, replicate A","z-score, replicate B","z-score, replicate C",outcome
MIATNB (MIAT neighbor),1,-0.15,-0.03,-0.42,-0.01,inactive
ZSCAN18 (zinc finger and SCAN domain containing 18),1,-0.15,-0.07,-0.07,-0.3,inactive
LINC00887 (long independently transcribed non-coding RNA 887),1,0.49,0.87,0.28,0.32,inactive
CATSPER3 (cation channel sperm associated 3),1,0.53,0.91,0.33,0.34,inactive
MSTO1 (misato mitochondrial distribution and morphology regulator 1),1,-0.87,-1.11,-0.94,-0.55,inactive
LOC388587 (retired record),1,-1.61,-1.52,-1.54,-1.76,inactive
LINC00324 (long independently transcribed non-coding RNA 324),1,0.23,0.35,0.18,0.17,inactive
MILR1 (mast cell immunoglobulin like receptor 1),1,0.91,1.48,0.63,0.62,inactive
"OPN1LW (opsin 1, long wave sensitive)",1,0.66,0.7,0.57,0.7,inactive
CCDC126 (coiled-coil domain containing 126),1,-0.58,-0.48,-0.62,-0.64,inactive
ACSM6 (acyl-CoA synthetase medium chain family member 6),1,1.31,0.93,0.36,2.63,inactive
TSR2 (TSR2 ribosome maturation factor),1,0.35,0.59,-0.18,0.62,inactive
